Experiments:
S. schleferi = experiment: Minimum bactericidal (MBC) assay; format: cell-based, S. schleiferi; conditions: FIG. 1; at IC50 and 10×IC50, 24 h
P. falciparum = conditions: read-out: inhibition of P. falciparum growth IC50; background; cited from earlier work
P. falciparum DXR = P. falciparum DXR (Plasmodium falciparum (isolate HB3), UniProt O96693); conditions: read-out: P. falciparum DXR IC50; background; cited from earlier work
S. chromogenes [1] = experiment: Minimum bactericidal (MBC) assay; format: cell-based; conditions: FIG. 1; at IC50 and 10×IC50, 24 h
S. pseudintermedius [2] = experiment: Minimum bactericidal (MBC) assay; format: cell-based; conditions: FIG. 1; at IC50 and 10×IC50, 24 h
S. schleiferi = experiment: Growth inhibition of Staphylococcus species assay; format: cell-based; conditions: read-out: Bacterial IC50 (Mean ± SD) S.s., LB media, 20 h, OD600
S. chromogenes [3] = experiment: Growth inhibition of Staphylococcus species assay; format: cell-based; conditions: read-out: Bacterial IC50 (Mean ± SD) S.c., LB media, 20 h, OD600
S. aureus = experiment: Growth inhibition of Staphylococcus species assay; format: cell-based; conditions: read-out: Bacterial IC50 (Mean ± SD) S.a., LB media, 20 h, OD600
S. pseudintermedius [4] = experiment: Growth inhibition of Staphylococcus species assay; format: cell-based; conditions: read-out: Bacterial IC50 (Mean ± SD) S.p., LB media, 20 h, OD600

Chains of the proteins cited; added tags and fusions are not shown. Lines headed by an entry give the natural chain unless they say otherwise; changes in a name come on top.
UniProt O96693: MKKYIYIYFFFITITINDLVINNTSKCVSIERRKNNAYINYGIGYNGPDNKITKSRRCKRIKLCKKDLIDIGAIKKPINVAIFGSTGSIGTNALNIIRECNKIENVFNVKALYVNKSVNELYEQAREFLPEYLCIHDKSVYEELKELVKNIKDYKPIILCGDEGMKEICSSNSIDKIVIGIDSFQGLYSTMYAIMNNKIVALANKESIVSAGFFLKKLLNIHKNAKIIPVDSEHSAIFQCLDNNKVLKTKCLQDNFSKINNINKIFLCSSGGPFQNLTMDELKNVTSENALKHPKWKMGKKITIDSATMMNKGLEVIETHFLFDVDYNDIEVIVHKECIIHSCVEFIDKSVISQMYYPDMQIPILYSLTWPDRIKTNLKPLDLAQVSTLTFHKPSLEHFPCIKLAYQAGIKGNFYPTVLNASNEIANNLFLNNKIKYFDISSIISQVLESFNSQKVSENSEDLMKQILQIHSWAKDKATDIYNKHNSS

Q: Which “bacteriostatic or bactericidal in S. schleferi” value (S. schleferi) does the source give for FR-900098 here?
A: The value was “bacteriostatic”.

Q: What about the IC50 (P. falciparum) of the same substance?
A: The IC50 was 0.09 to 0.35 µM.

Q: And the IC50 (P. falciparum DXR)?
A: Its IC50 is 0.024 µM.

Q: And the “bacteriostatic or bactericidal in S. chromogenes” value (S. chromogenes [1])?
A: Its value is “bacteriostatic”.

Q: What about the “bacteriostatic or bactericidal in S. pseudintermedius” value (S. pseudintermedius [2]) of the same substance?
A: Its value is “bacteriostatic”.

Q: And the IC50 (S. schleiferi)?
A: Its IC50 is 41.1 µM.

Q: And the IC50 (S. chromogenes [3])?
A: Its IC50 is 17.3 µM.

Q: And the IC50 (S. aureus)?
A: Its IC50 is greater than 100 µM.

Q: What about the IC50 (S. pseudintermedius [4]) of the same substance?
A: The IC50 was 34.1 µM.

Source: patent US12122799B2, “Antibiotics for veterinary staphylococcal infections” (THE GEORGE WASHINGTON UNIVERSITY, A CONGRESSIONALLY …, priority 2018, dated 2024)
